Compound potency records, mixed from different reports. Data source: NIAID ChemDB in PubChem.

All rows: enzyme or target tests; agent: HIV-1; protein: Protease; method: fluorescence; read-out: inhibition

Neighbouring rows are from separate reports. Blank or dashed fields: not listed here. Percent inhibition refers to the dose given; in toxicity tests it is the harm to the cells.

smiles	dose	strain	result
CC(C)(C)NC(=O)c1ccccc1C[C@@H](O)[C@H](Cc1ccccc1)NC(=O)[C@@H](CSc1ccccc1)NC(=O)OC(C)(C)C	2 µg/mL		3%
O=C1OC2(CCCCCC2)C(O)=C1C(c1ccccc1)C1CC1	3.3 µM		100%
CC(C)(C)NC(=O)c1ccccc1C[C@@H](O)[C@H](Cc1ccccc1)NC(=O)[C@H](N)CSc1ccccc1	1 µg/mL		3%
Cc1sc2ncc(C(O)CCCc3ccccc3)n2c1C	10 µM		100%
Cc1c(O)cccc1C(=O)N[C@@H](Cc1ccccc1)[C@H](O)C(=O)N1CSC(C)(C)[C@H]1C(=O)NCCCN1CCOCC1	0.064 µM	NL4-3	0%
O=C1OC(C(CCc2ccccc2)c2ccccc2)C(O)=C1C(c1ccccc1)C1CC1	10 µM		100%
OC(CCc1ccccc1)c1cnc2sc3c(n12)CCCCC3	3.3 µM		94%
CCCC1(CCC)OC(=O)C(C(c2cccc(NS(=O)(=O)c3ccc(C#N)cc3)c2)C(C)(C)C)=C1O	3.3 µM		100%
OC(CCc1ccco1)c1cnc2sc3c(n12)CCCCC3	10 µM		92%
CC(=O)N[C@@H](CSc1ccccc1)C(=O)N[C@@H](Cc1ccccc1)[C@H](O)Cc1ccccc1C(=O)NC(C)(C)C	1 µg/mL		8%
CCCC1(CCCc2ccccc2)OC(=O)C(C(c2ccccc2)C2CC2)=C1O	3.3 µM		100%
OC(CCc1ccc2ccccc2c1)c1cnc2sc3c(n12)CCCCC3	10 µM		94%
CC(C)(C)NC(=O)c1ccccc1C[C@@H](O)[C@H](Cc1ccccc1)NC(=O)[C@H](N)COCc1ccccc1	1 µg/mL		5%
O=C1OC2(CCCC2)C(O)=C1C(c1ccccc1)C1CC1	3.7 µM		100%
CN(C)c1ccc(CCC(O)c2cnc3sc4c(n23)CCCCC4)cc1	10 µM		94%

For reference, 2 entries again:

smiles,dose,strain,result
CC(C)(C)NC(=O)c1ccccc1C[C@@H](O)[C@H](Cc1ccccc1)NC(=O)[C@@H](CSc1ccccc1)NC(=O)OC(C)(C)C,2 µg/mL,,3%
CC(C)(C)NC(=O)c1ccccc1C[C@@H](O)[C@H](Cc1ccccc1)NC(=O)[C@H](N)COCc1ccccc1,1 µg/mL,,5%